The results in this text go back to publication doi:10.1101/2025.02.13.638143v1.

For this data set, the system named is CNc1ccccc1C(=O)O[C@@H]1[C@@H]2OP(=O)(O)OC[C@H]3O[C@@H](n4cnc5c(=O)[nH]c(N)nc54)[C@H](O)[C@@H]3OP(=O)(O)OC[C@H]2O[C@H]1n1cnc2c(=O)[nH]c(N)nc21. As to the kind of experiment: purified protein. To be noted: pH 8.0; 37.0 °C.

On to “(Vibrio cholerae O1 biovar El Tor str. N16961)”, for which the Km is 11 ± 3 µM.

The term Km denotes the concentration of substrate that gives half-maximal velocity.
